Patent US20040055092A1, “Use of percarbamic acids and diacyl percarbamates and precursors therefor” (priority 2000, published 2004)

Experiment: Tea-stained cotton fabric bleaching (CIE whiteness)
Conditions: 45 minutes, H2O2 5 g/l

Question: Which results are given for `OO` [H2O2, Hydrogen peroxide]?
Answer: CIE whiteness values (pH 5, 20° C., activator 3 g/l, starting fabric −30.8 (Example 12)): 0.6; CIE Whiteness (pH 5, 20° C., activator 3 g/l, starting fabric −34.4 (Example 4)): 24.5; CIE Whiteness (pH 5, 20° C., activator 3 g/l, starting fabric −52.4 (Example 10)): −27.3; CIE whiteness values (pH 5, 50° C., activator 3 g/l, starting fabric −30.8 (Example 12)): 23.1; CIE Whiteness (pH 5, 50° C., activator 3 g/l, starting fabric −34.4 (Example 4)): 35.5; CIE Whiteness (pH 5, 50° C., activator 3 g/l, starting fabric −52.4 (Example 10)): −2.3; CIE whiteness values (pH 5, 95° C., activator 3 g/l, starting fabric −30.8 (Example 12)): 60.8; CIE Whiteness (pH 5, 95° C., activator 3 g/l, starting fabric −34.4 (Example 4)): 62.2; CIE Whiteness (pH 5, 95° C., activator 3 g/l, starting fabric −52.4 (Example 10)): 33.9; CIE whiteness values (pH 7, 20° C., activator 3 g/l, starting fabric −30.8 (Example 12)): 13.6; CIE Whiteness (pH 7, 20° C., activator 3 g/l, starting fabric −34.4 (Example 4)): 39.1; CIE Whiteness (pH 7, 20° C., activator 3 g/l, starting fabric −52.4 (Example 10)): −0.3; CIE whiteness values (pH 7, 50° C., activator 3 g/l, starting fabric −30.8 (Example 12)): 36.6; CIE Whiteness (pH 7, 50° C., activator 3 g/l, starting fabric −34.4 (Example 4)): 43.1; CIE Whiteness (pH 7, 50° C., activator 3 g/l, starting fabric −52.4 (Example 10)): 5.3; CIE whiteness values (pH 7, 50°C., activator 0.1 g/l (Example 14)): 38.7; CIE whiteness values (pH 7, 95° C., activator 3 g/l, starting fabric −30.8 (Example 12)): 81.0; CIE Whiteness (pH 7, 95° C., activator 3 g/l, starting fabric −34.4 (Example 4)): 75.9; CIE Whiteness (pH 7, 95° C., activator 3 g/l, starting fabric −52.4 (Example 10)): 67.5; CIE whiteness values (pH 10, 20° C., activator 3 g/l, starting fabric −30.8 (Example 12)): 33.3; CIE Whiteness (pH 10, 20° C., activator 3 g/l, starting fabric −34.4 (Example 4)): 61.8; CIE Whiteness (pH 10, 20° C., activator 3 g/l, starting fabric −52.4 (Example 10)): 23.1; CIE whiteness values (pH 10, 50° C., activator 3 g/l, starting fabric −30.8 (Example 12)): 62.9; CIE Whiteness (pH 10, 50° C., activator 3 g/l, starting fabric −34.4 (Example 4)): 60.7; CIE Whiteness (pH 10, 50° C., activator 3 g/l, starting fabric −52.4 (Example 10)): 54.4; CIE whiteness values (pH 10, 50°C., activator 0.1 g/l (Example 14)): 62.9; CIE whiteness values (pH 10, 95° C., activator 3 g/l, starting fabric −30.8 (Example 12)): 78.2; CIE Whiteness (pH 10, 95° C., activator 3 g/l, starting fabric −34.4 (Example 4)): 77.8; CIE Whiteness (pH 10, 95° C., activator 3 g/l, starting fabric −52.4 (Example 10)): 70.6; CIE Whiteness (pH = 5, 50° C., activator 3 g/l (Example 15)): 35.6; CIE Whiteness (pH = 7, 50° C., activator 3 g/l (Example 15)): 43.6; CIE Whiteness (pH = 7, 95° C., activator 3 g/l (Example 15)): 69.6; CIE Whiteness (pH = 10, 50° C., activator 3 g/l (Example 15)): 60.3; CIE Whiteness (pH = 10, 95° C., activator 3 g/l (Example 15)): 79.5
